The record followed here is patent publication US10172362B2, “Biofilms, components and methods of use to reduce biofouling and contamination” (THE PENN STATE RESEARCH FOUNDATION, priority 2015, dated 2019).

The experiment deals with P. aeruginosa biofilm. Description: P. aeruginosa biofilm formation in 96-well plates with SNP as NO donor. The following applies: 5 μM SNP, 24 h, 37° C., M9G, 96 well plate. The method, then:
The average of PAO1 in FIG. 12 A-O measurements was biomass of 18.01 μm^3/μm^2, biofilm thickness of 42.03 μm and roughness co-efficient of 0.18. Average of E. coli NO− was biomass of 0.80 μm^3/μm^2, biofilm thickness of 2.25 μm and roughness co-efficient of 1.95. […] Biofilms were formed for 24 hr on NF90 membranes with M9G medium, Cm (300 μg/mL), Cb (250 μg/mL), 1.6% arabinose, and 15 mM L-arginine. The RO system was pressurized at 50 psi and stirred at 400 rpm; 0, 5, 10, and 15 mM NaCl feed concentrations were used to test the permeate flux through membranes with the biofilms. There is no significant difference for flux values between the E. coli NO+ and E. coli NO− biofilm covered membrane−; the flux is also similar to that of the E. coli LasI/LasR (TG1/pBdcAE50Q-lasI-lasR) biofilm-covered membrane shown in FIG. 7D. […]
Biofilm Formation Assay Using Crystal Violet. […] The total biofilm formation samples were measured at 540 nm, whereas cell growth was measured at 620 nm. […]

Some compounds may have been tested in ways that are not shown here.

As for sodium nitroprusside, the “reduction of normalized P. aeruginosa biofilm” value stood at 80%.
